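Growth of Mycobacterium tuberculosis over 4 days (cholesterol / DPPC medium with tyloxapol); the read-out is not stated. Compounds at 500 µM. The record gives no direction; compounds that gave an IC50 in retests scored well above the rest, so higher reads as more growth inhibition. About 18,000 compounds were tested under these conditions; 5% (about 900) showed 50% or more at least once.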

The filed quantity is “Percent Effect” (%). How 0% and 100% were set is not recorded. Most values in the screen are low, and negative values occur. Many other results are left out here, so strong results are more common than in the screen.

- NCC(O)CS(=O)(=O)c1cccs1 (centres undefined) | 10.8%
- CC(=O)N1CCC(C(=O)Nc2ccc(C)c(C)c2)CC1 | 40.42%
- CN1C(=O)C(N)Cc2ccccc21 (centres undefined) | -36.79%
- O=C(CCc1ccc(Br)cc1F)NC1CCS(=O)(=O)C1 (centres undefined) | -17.45%
- CCO[C@@H]1COCC[C@H]1NC(=O)CCc1csc(N)n1 | 6.656%
- Cc1ccc(-c2cc(C(N)=O)[nH]n2)cc1C | -2.528%
- CCCNCCc1ccccn1 | 7.218%
- CC[C@@H](O)CN1CCN(c2cc(OC)ccn2)CC1 | 20.46%
- CN(Cc1cccs1)C(N)=O | -17.92%
- COc1cccc(Cl)c1CN | -8.885%
- Cc1ccoc1C(=O)N1CCCN(CC(N)=O)CC1 | -0.1776%
- CC(C1CC1)N(C)CC(=O)Nc1sccc1C(N)=O (centres undefined) | -2.131%
- CC(=O)c1ccc(NCC(=O)NC(C)C(C)C)cc1 (centres undefined) | 64.89%
- CCn1ccc(C(=O)NCCSC(F)(F)F)cc1=O | 8.844%
- CNC1CCN(C)C1=O (centres undefined) | -14.85%
- O=C([C@@H]1C[C@H](F)CN1)N1CCc2ccccc21 | 28.23%
- Cc1cccc(CCC(=O)N2CCNCC2)c1 | 8.858%
- CCOC(=O)CCC(=O)c1ccc2c(c1)OCCO2 | 78.94%
- Cc1ccc(C(=O)N2C[C@H](C3CC3)[C@@H](N)C2)s1 | 7.192%
- CCC(CNS(=O)(=O)N(C)CC)c1ccccc1 (centres undefined) | 63.87%
- Cc1cccc(OCC(=O)NC2CCCNC2)c1 (centres undefined) | 25.87%
- NCC1CCCN1CCc1ccccc1 (centres undefined) | 85.02%
- CCCc1nnc(N2CCC3(CC2)OCC(C)O3)s1 (centres undefined) | 88.75%
- CSCC(=O)N(CCC#N)Cc1cccnc1 | 9.035%
- Cc1ccnc(N2CCOCC2CCO)n1 (centres undefined) | -9.647%
- OCCNCCNCc1ccc(-c2cccc(Cl)c2)o1 | 77.49%
- O=C(NCC1CCS(=O)(=O)C1)c1cccc2cn[nH]c12 (centres undefined) | 8.294%
- CCN(CC)CCNCCCN | -1.071%
- CCNCC(=O)Nc1cccc(OC)c1 | 18.43%
- COc1ccccc1CCNC1CCN(C(C)=O)CC1 | 5.36%
- CS(=O)(=O)c1ccc(NC(=O)Cn2ccnc2)cc1 | -10.15%
- Cc1cc(NC(=O)CN2CCN(C(C)C)CC2)n(C)n1 | -21.66%
- CC1(C)CN(C(=O)c2cc(Br)c[nH]2)CCO1 | 57.78%
- OC1CCN(C2COC2)CC1 | 0.6695%
- O=C(c1cc(C2CC2)on1)N1CC(O)(C2CC2)C1 | 64.43%
- O=C(CC(F)(F)F)N1CCCC1c1ccncc1 (centres undefined) | -1.912%
- CC(C)CS(=O)(=O)NCc1ccc2c(c1)OCO2 | 59.95%
- OCCOCCNCc1ccc(-c2ccc(F)cc2)o1 | 53.82%
- O=C(Cn1ccc(C(F)(F)F)n1)Nc1ccccn1 | 24.85%
- O=C(CCn1cc(Br)cn1)NCc1cccs1 | 61.26%
- CNCc1csc(C)n1 | 5.951%
- Cc1cc(C(=O)NCCNC(=O)c2ccoc2)no1 | 8.98%
- CNC(=O)CCN1CCC(=Cc2ccccc2)CC1 | 66.54%
- CNC(=O)Cn1cnc(N)n1 | 3.276%
- CC(C(=O)Nc1ccc(Br)cc1)n1cnnn1 (centres undefined) | 78.13%
- O=C(NCCNC(=O)C1CCCC1)c1ccccc1O | 46.77%
- O=C(c1cn2ccsc2n1)N1CC=CC1CO (centres undefined) | -5.24%
- CN(CC(O)C(F)(F)F)C(=O)c1cccc(C#N)c1 (centres undefined) | 10.9%
- CCCN1CCN(C(=O)COc2ccccc2)CC1 | 57.63%
- COc1ccc(C(C)NCCO)c(Br)c1 (centres undefined) | -2.297%
- O=C(Cn1cc(Br)cn1)Nc1ccc2c(c1)OCCO2 | 54.5%
- Clc1ccc2c(c1)CNCCO2 | 63.03%

The last 4 entries again:

{"structure": "CCCN1CCN(C(=O)COc2ccccc2)CC1", "percent effect": 57.63}
{"structure": "COc1ccc(C(C)NCCO)c(Br)c1", "stereo": "centres undefined", "percent effect": -2.297}
{"structure": "O=C(Cn1cc(Br)cn1)Nc1ccc2c(c1)OCCO2", "percent effect": 54.5}
{"structure": "Clc1ccc2c(c1)CNCCO2", "percent effect": 63.03}

The values are deposited in ChEMBL (CHEMBL3988442, “University of Dundee, Small-Polar-MMV Screening Library” (2021)).